In patent US10646469B2, “Substituted indole derivatives as dengue viral replication inhibitors” (Janssen Pharmaceuticals, Inc., priority 2016, dated 2020) one finds SI data, which are given here for 12 compounds.

Molecules are shown by their SMILES. A value given as a limit tells only on which side of the number the result lay.

What all share (type): cell-based, Dengue virus
Data set [1] deals with DENV-2 16681 strain. In words: DENV-2 antiviral assay (eGFP-labeled virus in Vero cells). The note with it: SI=CC50/EC50, DENV-2 antiviral assay. Here is the method: The antiviral activity of all the compounds of the invention was tested against the DENV-2 16681 strain which was labeled with enhanced green fluorescent protein (eGPF). The culture medium consists of minimal essential medium supplemented with 2% of heat-inactivated fetal calf serum, 0.04% gentamycin (50 mg/mL) and 2 mM of L-glutamine. Vero cells, obtained from ECACC, were suspended in culture medium and 25 μL was added to 384-well plates (2500 cells/well), which already contain the antiviral compounds. Typically, these plates contain a 5-fold serial dilution of 9 dilution steps of the test compound at 200 times the final concentration in 100% DMSO (200 nL). […] Finally, each plate contains wells which are assigned as virus controls (containing cells and virus in the absence of compound), cell controls (containing cells in the absence of virus and compound) and medium controls (containing medium in the absence of cells, virus and compounds). To the wells assigned as medium control, 25 μL of culture medium was added instead of Vero cells. Once the cells were added to the plates, the plates were incubated for 30 minutes at room temperature to allow the cells to distribute evenly within the wells. Next, the plates were incubated in a fully humidified incubator (37° C., 5% CO2) until the next day. Then, DENV-2 strain 16681, labeled with eGFP, was added at a multiplicity of infection (MOI) of 0.5. Therefore, 15 μL of virus suspension was added to all the wells containing test compound and to the wells assigned as virus control. In parallel, 15 μL of culture medium was added to the medium and cell controls. Next, the plates were incubated for 3 days in a fully humidified incubator (37° C., 5% CO2). At the day of the read out, the eGFP fluorescence was measured using an automated fluorescence microscope at 488 nm (blue laser). Using an in-house LIMS system, inhibition dose response curves for each compound were calculated and the half maximal effective concentration (EC50) was determined. Therefore, the percent inhibition (I) for every test concentration is calculated using the following formula: I=100*([…])/(SVC−SCC); ST, SCC and SVC are the amount of eGFP signal in the test compound, cell control and virus control wells, respectively. The EC50 represents the concentration of a compound at which the virus replication is inhibited with 50%, as measured by a 50% reduction of the eGFP fluorescent intensity compared to the virus control. The EC50 is calculated using linear interpolation (Table 1).

Data set [2] relates to DENV-1 strain TC974 #666. The data set is described as follows: Tetravalent RT-qPCR assay, serotype 1. The note with it: RT-qPCR serotype 1 TC974#666, Protocol A. The method, then:
(§1) The antiviral activity of the compounds of the invention was tested against DENV-1 strain TC974 #666 (NCPV), DENV-2 strain 16681, DENV-3 strain H87 (NCPV) and DENV-4 strain H241 (NCPV) in a RT-qPCR assay. Therefore, Vero cells were infected with either DENV-1, or -2, or -3, or -4 in the presence or absence of test compounds. At day 3 post-infection, the cells were lysed and cell lysates were used to prepare cDNA of both a viral target (the 3′UTR of DENV; Table 2) and cellular reference gene (β-actin, Table 2). Subsequently, a duplex real time PCR was performed on a Lightcycler480 instrument. The generated Cp value is inversely proportional to the amount of RNA expression of these targets. Inhibition of DENV replication by a test compound results in a shift of Cp's for the 3′UTR gene. On the other hand, if a test compound is toxic to the cells, a similar effect on β-actin expression will be observed. The comparative ΔΔCp method is used to calculate EC50, which is based on the relative gene expression of the target gene (3′UTR) normalized with the cellular housekeeping gene (β-actin). In addition, CC50 values are determined based on the Cp values acquired for the housekeeping gene β-actin.
(§2) The culture medium consisted of minimal essential medium supplemented with 2% of heat-inactivated fetal calf serum, 0.04% gentamycin (50 mg/mL) and 2 mM of L-glutamine. Vero cells, obtained from ECACC, were suspended in culture medium and 75 μL/well was added in 96-well plates (10000 cells/well), which already contain the antiviral compounds. […] In addition, each plate contains wells which are assigned as virus controls (containing cells and virus in the absence of compound) and cell controls (containing cells in the absence of virus and compound). Once the cells were added in the plates, the plates were incubated in a fully humidified incubator (37° C., 5% CO2) until the next day. Dengue viruses serotype-1, 2, 3 and 4 were diluted in order to obtain a Cp of ˜22-24 in the assay. Therefore, 25 μL of virus suspension was added to all the wells containing test compound and to the wells assigned as virus control. In parallel, 25 μL of culture medium was added to the cell controls. Next, the plates were incubated for 3 days in a fully humidified incubator (37° C., 5% CO2). After 3 days, the supernatant was removed from the wells and the cells were washed twice with ice-cold PBS (˜100 μL). The cell pellets within the 96-well plates were stored at −80° C. for at least 1 day. Next, RNA was extracted using the Cells-to-CT™ lysis kit, according to the manufacturer's guideline (Life Technologies). The cell lysates can be stored at −80° C. or immediately used in the reverse transcription step.
(§3) In preparation of the reverse transcription step, mix A (table 3A) was prepared and 7.57 μL/well was dispensed in a 96-well plate. After addition of 5 μL of the cell lysates, a five minute denaturation step at 75° C. was performed (table 3B). Afterwards, 7.43 μL of mix B was added (table 3C) and the reverse transcription step was initiated (table 3D) to generate cDNA.
(§4) Finally, a RT-qPCR mix was prepared, mix C (table 4A), and 22.02 μL/well was dispensed in 96-well LightCycler qPCR plates to which 3 μL of cDNA was added and the qPCR was performed according to the conditions in table 4B on a LightCycler 480.
(§5) Using the LightCycler software and an in-house LIMS system, dose response curves for each compound were calculated and the half maximal effective concentration (EC50) and the half maximal cytotoxic concentration (CC50) were determined (Tables 5-8).

The subject of data set [3] is DENV-2 strain 16681. The data set is described as follows: Tetravalent RT-qPCR assay, serotype 2. The note with it: RT-qPCR serotype 2 16681, Protocol A. Here is the method:
as §1, §2, §3, §4, §5
Background: In qPCR the cycle at which signal appears reflects the starting amount.

In data set [4] the test system is DENV-3 strain H87. The data set is described as follows: Tetravalent RT-qPCR assay, serotype 3. The settings on record: RT-qPCR serotype 3 H87, Protocol A. The method, then: as §1, §2, §3, §4, §5
The subject of data set [5] is DENV-4 strain H241. In words: Tetravalent RT-qPCR assay, serotype 4. The settings on record: RT-qPCR serotype 4 H241, Protocol A; ratio CC50 / EC50. The method, then:
as §1, §2, §3, §4, §5

For the compound `COc1cc(NC(C(=O)c2c[nH]c3ccc(OC(F)(F)F)cc23)c2ccc(F)cc2OC)cc(OCCO)c1` (single isomer, unassigned) [Compound 5B, 2-(4-fluoro-2-methoxyphenyl)-2-((3-(2-hydroxyethoxy)-5-methoxyphenyl)amino)-1-(5-(trifluoromethoxy)-1H-indol-3-yl)ethanone], the SI in data set [1] is recorded as over 9300; in data set [2], over 3410; in data set [3], over 7530; in data set [4], over 425; in data set [5], 34.
In the case of `COc1cc(NC(C(=O)c2c[nH]c3cc(F)c(C(F)(F)F)cc23)c2ccc(F)cc2OC)cc(OCCO)c1` (single isomer, unassigned) [Compound 3A, 2-(4-fluoro-2-methoxyphenyl)-1-(6-fluoro-5-(trifluoromethyl)-1H-indol-3-yl)-2-((3-(2-hydroxyethoxy)-5-methoxyphenyl)amino)ethanone], the SI in data set [1] is reported as 5050; in data set [2], over 2880; in data set [3] it was over 5460; in data set [4] it was over 203; in data set [5], over 63.
In the case of `COc1cc(NC(C(=O)c2c[nH]c3cc(F)c(OC(F)(F)F)cc23)c2ccc(Cl)cc2OC)cc(OCCO)c1` (single isomer, unassigned) [Compound 15B, 2-(4-chloro-2-methoxyphenyl)-1-(6-fluoro-5-(trifluoromethoxy)-1H-indol-3-yl)-2-((3-(2-hydroxyethoxy)-5-methoxyphenyl)amino)ethanone], the SI in data set [1] stood at 10200; in data set [2] it was 4720; in data set [3], 18600; in data set [4], 1130; in data set [5], 47.
In the same order, the values of `COc1cc(NC(C(=O)c2c[nH]c3c(C)cc(C(F)(F)F)cc23)c2ccc(Cl)cc2OC)cc(OCCO)c1` (single isomer, unassigned) [Compound 12A, 2-(4-chloro-2-methoxyphenyl)-2-((3-(2-hydroxyethoxy)-5-methoxyphenyl)amino)-1-(7-methyl-5-(trifluoromethyl)-1H-indol-3-yl)ethanone] are 21500, over 7400, over 15400, over 862 and 91.
`COc1cc(NC(C(=O)c2c[nH]c3ccc(OC(F)(F)F)cc23)c2ccc(F)cc2OC)cc(OCCO)c1` (racemic) [Compound 5, 2-(4-fluoro-2-methoxyphenyl)-2-((3-(2-hydroxyethoxy)-5-methoxyphenyl)amino)-1-(5-(trifluoromethoxy)-1H-indol-3-yl)ethanone] returned an SI in data set [1] of 10300.
Compound `COc1cc(NC(C(=O)c2c[nH]c3ccc(C(F)(F)F)cc23)c2ccc(F)cc2OC)cc(OCCO)c1` (racemic) [Compound 1, 2-(4-fluoro-2-methoxyphenyl)-2-((3-(2-hydroxyethoxy)-5-methoxyphenyl)amino)-1-(5-(trifluoromethyl)-1H-indol-3-yl)ethanone] yielded an SI in data set [1] of 4730.
In data set [1], `COc1cc(NC(C(=O)c2c[nH]c3ccc(OC(F)(F)F)cc23)c2ccc(Cl)cc2OC)cc(OCCO)c1` (single isomer, unassigned) [Compound 13B, 2-(4-chloro-2-methoxyphenyl)-2-((3-(2-hydroxyethoxy)-5-methoxyphenyl)amino)-1-(5-(trifluoromethoxy)-1H-indol-3-yl)ethanone] returned an SI of 643.
On the same count and under the same terms, for `COc1cc(NC(C(=O)c2c[nH]c3c(C)cc(OC(F)(F)F)cc23)c2ccc(Cl)cc2OC)cc(OCCO)c1` (racemic) [Compound 16, 2-(4-chloro-2-methoxyphenyl)-2-((3-(2-hydroxyethoxy)-5-methoxyphenyl)amino)-1-(7-methyl-5-(trifluoromethoxy)-1H-indol-3-yl)ethanone] the value was over 39200; for `COc1cc(NC(C(=O)c2c[nH]c3c(C)cc(C(F)(F)F)cc23)c2ccc(F)cc2OC)cc(OCCO)c1` (racemic) [Compound 4, 2-(4-fluoro-2-methoxyphenyl)-2-((3-(2-hydroxyethoxy)-5-methoxyphenyl)amino)-1-(7-methyl-5-(trifluoromethyl)-1H-indol-3-yl)ethanone], 13100; for `COc1cc(NC(C(=O)c2c[nH]c3c(C)cc(C(F)(F)F)cc23)c2ccc(Cl)cc2OC)cc(OCCO)c1` (single isomer, unassigned) [Compound 12B, 2-(4-chloro-2-methoxyphenyl)-2-((3-(2-hydroxyethoxy)-5-methoxyphenyl)amino)-1-(7-methyl-5-(trifluoromethyl)-1H-indol-3-yl)ethanone], 294.
Turning to `COc1cc(NC(C(=O)c2c[nH]c3ccc(C(F)(F)F)cc23)c2ccc(Cl)cc2OC)cc(OCCO)c1` (racemic) [Compound 9, 2-(4-chloro-2-methoxyphenyl)-2-((3-(2-hydroxyethoxy)-5-methoxyphenyl)amino)-1-(5-(trifluoromethyl)-1H-indol-3-yl)ethanone], the SI in data set [1] was found to be 17600.
The compound `COc1cc(NC(C(=O)c2c[nH]c3c(C)cc(OC(F)(F)F)cc23)c2ccc(F)cc2OC)cc(OCCO)c1` (single isomer, unassigned) [Compound 8B, 2-(4-fluoro-2-methoxyphenyl)-2-((3-(2-hydroxyethoxy)-5-methoxyphenyl)amino)-1-(7-methyl-5-(trifluoromethoxy)-1H-indol-3-yl)ethanone] showed an SI in data set [1] of 195.
